A mixed list of measured activities; the numbers were collected in NIAID ChemDB.

All rows: tests in culture; organism: Sindbis virus; measure: EC50

Rows are shuffled and stem from different studies.

| smiles | cell line | read by | value |
|---|---|---|---|
| CC1(C)[C@@H](CCO)C[C@H]1n1nnc2c(=O)[nH]c(N)nc21 | VERO | cytopathic effect | >400 µg/mL |
| COC(=O)[C@]1(C)CCC[C@]2(C)c3ccc4nc5c(nc4c3CCC12)CCCC5 | VERO | plaque count | >4 µg/mL |
| CCC(Sc1ncnc2c1cnn2COCCO)C(N)=O | VERO | cytopathic effect | >400 µg/mL |
| CC1(C)[C@@H](CCO)C[C@H]1n1nnc2c(=O)[nH]cnc21 | VERO | cytopathic effect | >100 µg/mL |
| [N-]=[N+]=N[C@H]1[C@@H](F)[C@H](n2cnc3c(N)ncnc32)O[C@@H]1CO | VERO B | cytopathic effect | >200 µg/mL |
| CC1(C)[C@@H](CCO)C[C@H]1n1cnc2c(=O)[nH]c(N)nc21 | VERO | cytopathic effect | >400 µg/mL |
| CC(Sc1ncnc2c1cnn2COCCO)C(N)=O | VERO | cytopathic effect | >400 µg/mL |
| COC(=O)[C@]1(C)CCC[C@]2(C)c3ccc4nc(-c5ccccc5)c(-c5ccccc5)nc4c3CCC12 | VERO | plaque count | >4 µg/mL |
| CC(C)CS[C@@H]1C=C[C@H](n2cnc3c(N)ncnc32)C1 | HeLa | cytopathic effect | >3.2 µg/mL |
| COC(=O)[C@]1(C)CCC[C@]2(C)c3ccc4[nH]cnc4c3CCC12 | VERO | plaque count | >4 µg/mL |
| Nc1ncnc2c1ncn2C[C@H](O)CO | BHK | cytopathic effect | >200 µg/mL |
| OC[C@H]1O[C@@H](c2cc(/C=C/Br)c(F)cc2F)C[C@@H]1O | VERO | cytopathic effect | >16 µg/mL |
| NC(=O)CSc1ncnc2c1cnn2COCC(O)CO | VERO | cytopathic effect | >400 µg/mL |
| COC(=O)[C@]1(C)CCC[C@]2(C)c3cc4cc[nH]c4cc3CCC12 | VERO | plaque count | >4 µg/mL |

The last 2 rows once more:

smiles,cell line,read by,value
NC(=O)CSc1ncnc2c1cnn2COCC(O)CO,VERO,cytopathic effect,>400 µg/mL
COC(=O)[C@]1(C)CCC[C@]2(C)c3cc4cc[nH]c4cc3CCC12,VERO,plaque count,>4 µg/mL

ECn is the concentration giving n% inhibition of infection, replication or growth.